In article PMC8124314, “Chimeric Claudins: A New Tool to Study Tight Junction Structure and Function” (2021):

Target: Maltose-binding protein-fused chimeric CLDN1 (MBP-CC1) (human (CLDN1 part))
Assay: SPR

MBP-fused Clostridium perfringens enterotoxin (MBP-CPE) (domain or fragment)
pKd: 6.37
koff: 0.000871 s⁻¹
kon: 2060 M⁻¹ s⁻¹

pKd: −log10 of the molar value.
